Pooled drug test results. Numbers come from NIAID ChemDB, via PubChem.

All rows: enzyme or target tests

Two numbers with a dash give a range or band. Blank or dashed fields: not listed here. Neighbouring rows are from separate reports. Percent inhibition refers to the dose given; in toxicity tests it is the harm to the cells. ICn: concentration for n% inhibition.

compound	read-out	protein	read by	agent	strain	dose	result
O=c1cc(-c2cc(O)c(O)c(O)c2)oc2cc(O)cc(O)c12	inhibition	Replicase complex	SYBR Green	Hepatitis C virus	J4	20 µM	69.5%
O=C(Nc1ccc2cn[nH]c2c1)c1cc(N2CCNCC2)c(F)cc1F	inhibition	Reverse transcriptase	-	Hepatitis B virus	-	0.01 µg/mL	18%
O=C(Nc1cccc(-c2nc(C(=O)O)c(O)c(=O)[nH]2)c1)Nc1ccccc1[N+](=O)[O-]	IC50	HCV polymerase	-	Hepatitis C virus	-	-	<100 µM
C=Cc1cc(NS(=O)(=O)c2ccccc2C)c(C(=O)O)s1	IC50	NS3 ATPase	-	Hepatitis C virus	-	-	5–20 µM
O=c1c(O)c(-c2ccc(O)cc2O)oc2cc(O)cc(O)c12	inhibition	Replicase complex	SYBR Green	Hepatitis C virus	J4	20 µM	69.3%
O=C(O)[C@H](Cc1ccccc1)N(Cc1cccc(Br)c1)C(=O)c1ccc(Cl)cc1Cl	IC50	RNA-dependent RNA polymerase	-	Hepatitis C virus	-	-	<5 µM
C=CCN(C(=O)CCC(C)C)c1cc(-c2ccccc2)sc1C(=O)O	IC50	NS3 ATPase	-	Hepatitis C virus	-	-	5–20 µM
CN1CCN(c2cc(C(=O)Nc3ccc4[nH]ncc4c3)c(F)cc2F)CC1	inhibition	Nonstructural protein 5B	-	Hepatitis C virus	-	10 µg/mL	36%
O=C(O)c1nc(-c2cnccn2)[nH]c(=O)c1O	IC50	HCV polymerase	-	Hepatitis C virus	-	-	<100 µM
C=CC(=O)NCC(=O)N1C[C@H](Oc2nccc3ccc(Br)cc23)C[C@H]1C(=O)N[C@]1(C(=O)NS(=O)(=O)C2CC2)C[C@H]1C=C	IC50	Nonstructural protein 3/4A	FRET	Hepatitis C virus	1b A156T	-	0.046 µM
O=C(O)C(Cc1ccccc1)N(Cc1ccc(I)cc1)C(=O)c1ccc(Cl)cc1Cl	IC50	RNA-dependent RNA polymerase	-	Hepatitis C virus	-	-	5–20 µM
O=C1/C(=C\c2c(F)cccc2Cl)SC(=S)N1NS(=O)(=O)c1ccccc1	IC50	NS5B polymerase	-	Hepatitis C virus	-	-	≤30 µM
CN1CCNCCC1c1cc(C(=O)Nc2ccc3[nH]ncc3c2)c(F)cc1F	IC50	Reverse transcriptase	-	Hepatitis B virus	-	-	0.1–1 µg/mL
Cc1ccc(C(C)NC(=O)Nc2cccc(-c3nc(C(=O)O)c(O)c(=O)[nH]3)c2)c(C)c1	IC50	HCV polymerase	-	Hepatitis C virus	-	-	<100 µM
O=C(Nc1ccc2cn[nH]c2c1)c1cc(N2CCN(CCO)CC2)c(F)cc1F	IC50	Reverse transcriptase	-	Hepatitis B virus	-	-	0.1 µg/mL
CC(C)N(C(=O)c1cc2c(Cl)cc(Cl)cc2[nH]1)c1cc(-c2ccccc2)sc1C(=O)O	IC50	NS3 ATPase	-	Hepatitis C virus	-	-	<5 µM
NN1C(=O)/C(=C\c2ccc(Cl)cc2)SC1=S	IC50	NS5B polymerase	-	Hepatitis C virus	-	-	≤30 µM
Cc1ccc(C)c(S(=O)(=O)Nc2cc(-c3ccccc3)sc2C(=O)O)c1	IC50	NS3 ATPase	-	Hepatitis C virus	-	-	5–20 µM
O=C(c1ccc(CN(c2ccc(Cl)cc2Cl)[C@@H](Cc2ccccc2)C(=O)O)cc1)c1ccc(Cl)cc1Cl	IC50	RNA-dependent RNA polymerase	-	Hepatitis C virus	-	-	<5 µM
O=C(O)c1nc(-c2cccc(NS(=O)(=O)c3cccs3)c2)[nH]c(=O)c1O	IC50	HCV polymerase	-	Hepatitis C virus	-	-	<100 µM
Cc1ccccc1S(=O)(=O)Nc1cc(-c2ccc(Cl)cc2)sc1C(=O)O	IC50	NS3 ATPase	-	Hepatitis C virus	-	-	<5 µM
Cc1oc(-c2ccccc2)nc1CC(=O)Nc1ccsc1-c1nc(C(=O)O)c(O)c(=O)[nH]1	IC50	HCV polymerase	-	Hepatitis C virus	-	-	<25 µM
O=c1c(O)c(-c2ccccc2)oc2cc(O)ccc12	inhibition	Replicase complex	SYBR Green	Hepatitis C virus	J4	20 µM	71.3%
Cc1ccc(S(=O)(=O)Nc2cc(-c3ccccc3)sc2C(=O)O)cc1	IC50	NS3 ATPase	-	Hepatitis C virus	-	-	<5 µM
O=C(Nc1ccc2cn[nH]c2c1)c1cc(N2CCC(O)CC2)c(F)cc1F	inhibition	Nonstructural protein 5B	-	Hepatitis C virus	-	10 µg/mL	75%
O=C(O)c1sc(-c2ccccc2)cc1N(Cc1ccc(C(F)(F)F)cc1)C(=O)C1CCC1	IC50	NS3 ATPase	-	Hepatitis C virus	-	-	5–20 µM
COc1cc(C)c(S(=O)(=O)N(Cc2cccc(Br)c2)[C@@H](Cc2ccccc2)C(=O)O)c(C)c1C	IC50	RNA-dependent RNA polymerase	-	Hepatitis C virus	-	-	5–20 µM
O=C(Nc1ccc2[nH]ncc2c1)c1cc(N2CCNCC2)c(F)cc1F	IC50	Reverse transcriptase	-	Hepatitis B virus	-	-	0.1–1 µg/mL
CC(C)(C)c1ccc(C(=O)Nc2ocnc2-c2nc(C(=O)O)c(O)c(=O)[nH]2)cc1	IC50	HCV polymerase	-	Hepatitis C virus	-	-	<100 µM
COc1cccc(/C=C2/SC(=S)N(NS(=O)(=O)c3ccccc3)C2=O)c1	IC50	NS5B polymerase	-	Hepatitis C virus	-	-	≤30 µM
Cc1ccc(S(=O)(=O)Nc2cc(-c3ccc(Cl)cc3)sc2C(N)=O)cc1	IC50	NS3 ATPase	-	Hepatitis C virus	-	-	5–20 µM
CSc1ccc(NC(=O)Nc2cccc(-c3nc(C(=O)O)c(O)c(=O)[nH]3)c2)cc1	IC50	HCV polymerase	-	Hepatitis C virus	-	-	<100 µM
O=C(O)[C@H](Cc1ccccc1)N(Cc1ccc(-c2cc3ccccc3o2)o1)C(=O)c1ccc(Cl)cc1Cl	IC50	RNA-dependent RNA polymerase	-	Hepatitis C virus	-	-	<5 µM
CC(C)(C)OC(=O)N[C@@H](CC(F)F)C(=O)Nc1ccsc1-c1nc(C(=O)O)c(O)c(=O)[nH]1	IC50	HCV polymerase	-	Hepatitis C virus	-	-	<25 µM
O=C1/C(=C\c2ccc(Cl)c([N+](=O)[O-])c2)SC(=S)N1NS(=O)(=O)c1ccccc1	IC50	NS5B polymerase	-	Hepatitis C virus	-	-	≤30 µM
O=C(Nc1ccc2[nH]ncc2c1)c1cc(NCc2ccccn2)c(F)cc1F	inhibition	Nonstructural protein 5B	-	Hepatitis C virus	-	10 µg/mL	78%
O=c1c(O[C@@H]2O[C@H](CO)[C@H](O)[C@H](O)[C@H]2O)c(-c2ccc(O)c(O)c2)oc2cc(O)cc(O)c12	inhibition	Replicase complex	SYBR Green	Hepatitis C virus	J4	20 µM	28.1%
O=C(O)c1nc(-c2cccc(OCc3ccccc3)c2[N+](=O)[O-])[nH]c(=O)c1O	IC50	HCV polymerase	-	Hepatitis C virus	-	-	<100 µM
O=C(Nc1ccc2cn[nH]c2c1)c1cc(C2CCNCCN2)c(F)cc1F	inhibition	Nonstructural protein 5B	-	Hepatitis C virus	-	10 µg/mL	76%